Measurements reported in PubChem BioAssay AID1259414 (Drosophila RNAi Screening Center, 2018).
The screen tested about 24,000 reagents; below is an unselected part of those that have a named target and a result. In the full data, about 1,210 (5%) are marked active. 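Inactive calls also include excluded dsRNAs with several or no targets, genes unexpressed in JW18, and well A1, regardless of score.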 Unmarked entries are inactive. Reagents against one gene are numbered here. No sequences are given here.

Screen: 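Genome-wide screen for host control of endosymbiont load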 (primary screen)
Cells: Drosophila JW18 cells infected with Wolbachia
Reagents: long dsRNA against Drosophila genes, 0.25 µg dsRNA per well of a 384-well plate
Time to read-out: 5 days
Challenge: cells persistently infected with Wolbachia before knock-down; no added drug
Measurement: 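Imaged fluorescence in situ signal for Wolbachia 23S rRNA per DAPI-counted host cell, given as a robust z-score within each plate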
Direction: Wolbachia per cell robust z: higher = more Wolbachia per host cell than the plate typical
Active means: 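Active if absolute robust z reaches 1.5 in two or more of three replicates, leaving out multi- or no-target dsRNAs, genes unexpressed in JW18 and A1 wells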

Target gene | dsRNA no. | Wolbachia per cell robust z, rep 1 | Wolbachia per cell robust z, rep 2 | Wolbachia per cell robust z, rep 3
Nepl12 | 1 | -0.322 | 0.602 | -4.8
Rh50 | 1 | -0.52 | -0.0486 | -4.94
NC2beta | 1 | -0.226 | -0.811 | -3.36
NC2beta | 2 | -1.4 | 1.26 | -0.139
Sfp87B | 1 | -0.024 | 0.927 | -0.505
Ptr | 1 | -1.65 | 0.00987 | 0.877
Ptr | 2 | -1.34 | 0.651 | -0.105
CG5390 | 1 | 0.393 | 0.0892 | 1.95
CG5390 | 2 | -1.64 | -0.0511 | 0.565
CG31205 | 1 | 0.933 | -1.47 | -0.399
CG31205 | 2 | -0.183 | 0.782 | 0.769
CCHa2 | 1 | 0.351 | 0.138 | 0.0758

3 successive records from above, quoted:
Target gene | dsRNA no. | Wolbachia per cell robust z, rep 1 | Wolbachia per cell robust z, rep 2 | Wolbachia per cell robust z, rep 3
CG5390 | 2 | -1.64 | -0.0511 | 0.565
CG31205 | 1 | 0.933 | -1.47 | -0.399
CG31205 | 2 | -0.183 | 0.782 | 0.769

Next reagents follow.
Target gene | dsRNA no. | Wolbachia per cell robust z, rep 1 | Wolbachia per cell robust z, rep 2 | Wolbachia per cell robust z, rep 3
Spn28Dc | 1 | -0.9 | 0.548 | 0.298
l(3)73Ah | 1 | 0.548 | 0.0475 | -1.1
cg | 1 | -0.699 | -0.903 | -0.642
cg | 2 | 1.33 | -8.21 | 0.541
ppk24 | 1 | 0.635 | 0.708 | -5.48
CG15034 | 1 | -6.83 | 0.136 | -0.368
Lnpk | 1 | 1.5 | -0.695 | 0.948
Lnpk | 2 | 0.34 | 0.208 | 0.0885
crol | 1 | 0.618 | 0.835 | -0.546
crol | 2 | 0.46 | -1.23 | 0.367
crol | 3 | -7.94 (active) | 0.721 | -1.81
gpp | 1 | 0.406 | 0.258 | 0.87
gpp | 2 | -0.573 | 0.961 | -0.552
gdrd | 1 | -5.35 | -2.66 | -0.734
CG7059 | 1 | -1.88 | -0.022 | -2.16
CG7059 | 2 | 0.65 | 0.845 | 0.557
CG7059 | 3 | 0.905 | 0.593 | 0.292
